Values quoted from earlier work in article PMC7941644, “Identification and Development of Therapeutics for COVID-19” (ArXiv, 2021).

What was measured:
[1] = tested on: SARS-CoV-1
[2] = tested on: COVID-19; settings: vs control, no placebo
[3] = parameters: method as in PMID 32065831; settings: subcutaneously administered as printed

Row | Molecule | inhibition of coronavirus replication [1] | rate ratio of in-hospital death [2] | effect on 28-day mortality [3]
1 | IFN-β: type I interferon, cytokine activating the innate immune response against viral infections (protein, UniProt P01574 22-187, looked up) Interferon beta: MSYNLLGFLQRSSNFQCQKLLWQLNGRLEYCLKDRMNFDIPEEIKQLQQFQKEDAALTIYEMLQNIFAIFRQDSSSTGWNETIVENLLANVYHQINHLKTVLEEKLEKEDFTRGKLMSSLHLKRYYGRILHYLKAKEYSHCAWTIVRVEILRNFYFINRLTGYLRN | strongly inhibit the replication | – | –
2 | IFN-β−1a: interferon beta-1a, administered subcutaneously in the Solidarity trial (protein, UniProt P01574 22-187, looked up) Interferon beta: MSYNLLGFLQRSSNFQCQKLLWQLNGRLEYCLKDRMNFDIPEEIKQLQQFQKEDAALTIYEMLQNIFAIFRQDSSSTGWNETIVENLLANVYHQINHLKTVLEEKLEKEDFTRGKLMSSLHLKRYYGRILHYLKAKEYSHCAWTIVRVEILRNFYFINRLTGYLRN | – | 1.16 | no effect on 28-day mortality
